Results published in article PMC7482817 (Theranostics, 2020).

System: E. coli (mcr-1)
Test: pEtN-lipid A conjugate by LC-MS/MS
Details: different concentrations of melatonin

COc1ccc2[nH]cc(CCNC(C)=O)c2c1 [Melatonin, N-acetyl-5-methoxytryptamine]
pEtN-lipid A conjugate (1920.3 Da): decreased pEtN-lipid A conjugate
